Compound potency records, mixed from different reports. Data source: NIAID ChemDB in PubChem.

Shared fields: tests on isolated targets; organism: Hepatitis C virus; protein: NS3/NS4A protease; endpoint: IC50

Two numbers with a dash give a range or band. Conditions beyond the fields shown may differ between rows. ICn is the concentration giving n% inhibition. Blank or dashed fields: not listed here.

compound | strain or isolate | result
C=CC1CC1(NC(=O)[C@@H]1C[C@@H](OC(=O)Nc2sc3c(c2C(=O)OCC)CCCC3)CN1C(=O)[C@@H](NC(=O)OC(C)(C)C)C(C)(C)C)C(=O)NS(=O)(=O)C1CC1 | BMS/H77C/J416S | 0.1–1 µM
C=C[C@@H]1C[C@]1(NC(=O)[C@@H]1C[C@@H](Oc2cc(-c3ccccc3)nc3cc(OC)ccc23)CN1C(=O)[C@@H](NC(=O)COc1ccc(F)cc1)C(C)(C)C)C(=O)NS(=O)(=O)C1CC1 | BMS | <0.05 µM
C=CC1CC1(NC(=O)[C@@H]1C[C@@H](OC(=O)Nc2ccccc2N2CCOCC2)CN1C(=O)[C@@H](NC(=O)OC(C)(C)C)C(C)(C)C)C(=O)NS(=O)(=O)C1CC1 | BMS/H77C/J416S | <0.1 µM
C#CC[C@@H](C=O)C(=O)[C@H](CCC(=O)O)NC(=O)[C@@H](CC(C)C)NC(=O)[C@H](CCSC)NC(=O)[C@H](CCC(=O)O)NC(=O)[C@H](CC(=O)O)NC(=O)CCC(=O)O | - | 2 µM
C=CC1CC1(NC(=O)[C@@H]1C[C@@H](OC(=O)Nc2ccc(Cl)cc2-c2cc(C)[nH]n2)CN1C(=O)[C@@H](NC(=O)OC(C)(C)C)C(C)(C)C)C(=O)NS(=O)(=O)C1CC1 | BMS/H77C/J416S | 0.1–1 µM
C#CC[C@@H](C=O)C(=O)[C@H](CCC(=O)O)NC(=O)[C@H](CCC(=O)O)NC(=O)[C@H](CCSC)NC(=O)[C@H](CCC(=O)O)NC(=O)[C@H](CC(=O)O)NC(=O)CCC(=O)O | - | 23 µM
C=C[C@@H]1C[C@@]1(NC(=O)[C@@H]1C[C@@H](Oc2cc(-c3ccccc3)nc3cc(OC)ccc23)CN1C(=O)[C@H](CC1CCCCC1)NC(=O)OC(C)(C)C)C(=O)NS(=O)(=O)C(F)(F)F | BMS | <50 µM
CCC[C@H](NC(=O)[C@@H]1C[C@@H](OC(=O)N2CCc3ccccc3C2)CN1C(=O)[C@@H](NC(=O)[C@@H](NC(=O)[C@H](CNC(=O)OC)NC(=O)OC)C1CCCCC1)C(C)(C)C)C(=O)C(=O)NC1CC1 | - | 0.068 µM
C=C[C@@H]1C[C@]1(NC(=O)[C@@H]1C[C@@H](Oc2cc(-c3ccccc3)nc3cc(OC)ccc23)CN1C(=O)[C@@H](NC(=O)OC(C)(C)C)C(C)(C)C)C(=O)NS(=O)(=O)c1cccc(C)c1 | BMS | <0.05 µM
CSCC[C@H](NC(=O)[C@H](CCC(=O)O)NC(=O)[C@H](CC(=O)O)NC(=O)CCC(=O)O)C(=O)N[C@@H](CCC(=O)O)C(=O)N[C@@H](CCC(=O)O)C(=O)N[C@H](C=O)CC(F)(F)F | - | 20 µM
C=CC1CC1(NC(=O)[C@@H]1C[C@@H](OC(=O)N(C)c2ccccc2)CN1C(=O)[C@@H](NC(=O)OC(C)(C)C)C(C)(C)C)C(=O)NS(=O)(=O)C1CC1 | BMS/H77C/J416S | 0.1–1 µM
C#CC[C@@H](C=O)NC(=O)[C@H](CC(C)C)NC(=O)[C@@H](NC(=O)[C@H](Cc1ccccc1C)NC(=O)[C@H](CCC(=O)O)NC(=O)[C@H](CC(=O)O)NC(=O)CCC(=O)O)C(C)(C)C | - | 0.18 µM
C=CC1CC1(NC(=O)[C@@H]1C[C@@H](OC(=O)Nc2ccccc2C(=O)OCC)CN1C(=O)[C@@H](NC(=O)OCC)C(C)(C)C)C(=O)NS(=O)(=O)C1CC1 | BMS/H77C/J416S | <0.1 µM
CC[C@@H]1C[C@]1(NC(=O)[C@@H]1C[C@@H](Oc2cc(-c3ccccc3)nc3cc(OC)ccc23)CN1C(=O)[C@@H](NC(=O)OCCF)C(C)C)C(=O)NS(=O)(=O)C1CC1 | BMS | <0.05 µM
C=CC1CC1(NC(=O)[C@@H]1C[C@@H](OC(=O)Nc2ccccc2-n2cccn2)CN1C(=O)[C@@H](NC(=O)OC(C)(C)C)C(C)(C)C)C(=O)NS(=O)(=O)C1CC1 | BMS/H77C/J416S | <0.1 µM
CSCC[C@H](NC(=O)[C@H](CCC(=O)O)NC(=O)[C@H](CC(=O)O)NC(=O)CCC(=O)O)C(=O)N[C@@H](CCC(=O)O)C(=O)N[C@@H](CCC(=O)O)C(=O)[C@H](C=O)CC(F)(F)F | - | 20 µM
C=C[C@@H]1C[C@]1(NC(=O)[C@@H]1C[C@@H](Oc2cc(-c3ccccc3)nc3cc(OC)ccc23)CN1C(=O)[C@@H](NC(=O)OC(C)(C)C)C(C)(C)C)C(=O)NS(=O)(=O)c1ccccc1C(F)(F)F | BMS | <0.05 µM
C#CC[C@@H](C=O)C(=O)[C@H](CCC(=O)O)NC(=O)[C@@H](CCC(=O)O)NC(=O)[C@H](Cc1ccc([N+](=O)[O-])cc1)NC(=O)[C@H](CCC(=O)O)NC(=O)[C@H](CC(=O)O)NC(=O)CCC(=O)O | - | 39 µM
C=CC1CC1(NC(=O)[C@@H]1C[C@@H](OC(=O)NCCc2ccccc2)CN1C(=O)[C@@H](NC(=O)OC(C)(C)C)C(C)(C)C)C(=O)NS(=O)(=O)C1CC1 | BMS/H77C/J416S | 0.1–1 µM
C=C[C@@H]1C[C@]1(NC(=O)[C@@H]1C[C@@H](Oc2cc(-c3ccccc3)nc3cc(OC)ccc23)CN1C(=O)[C@@H](NC(=O)OCOC(C)=O)C(C)(C)C)C(=O)NS(=O)(=O)C1CC1 | BMS | <0.05 µM
C#CC[C@@H](C=O)C(=O)[C@H](CCC(=O)O)NC(=O)[C@@H](CCC(=O)O)NC(=O)[C@H](Cc1ccc(OC)cc1)NC(=O)[C@H](CCC(=O)O)NC(=O)[C@H](CC(=O)O)NC(=O)CCC(=O)O | - | 36 µM

Again, the opening 3 rows:

compound,strain or isolate,result
C=CC1CC1(NC(=O)[C@@H]1C[C@@H](OC(=O)Nc2sc3c(c2C(=O)OCC)CCCC3)CN1C(=O)[C@@H](NC(=O)OC(C)(C)C)C(C)(C)C)C(=O)NS(=O)(=O)C1CC1,BMS/H77C/J416S,0.1–1 µM
C=C[C@@H]1C[C@]1(NC(=O)[C@@H]1C[C@@H](Oc2cc(-c3ccccc3)nc3cc(OC)ccc23)CN1C(=O)[C@@H](NC(=O)COc1ccc(F)cc1)C(C)(C)C)C(=O)NS(=O)(=O)C1CC1,BMS,<0.05 µM
C=CC1CC1(NC(=O)[C@@H]1C[C@@H](OC(=O)Nc2ccccc2N2CCOCC2)CN1C(=O)[C@@H](NC(=O)OC(C)(C)C)C(C)(C)C)C(=O)NS(=O)(=O)C1CC1,BMS/H77C/J416S,<0.1 µM